According to patent publication US9931320B2, “Parasiticidal oral veterinary compositions comprising systemically-acting active agents, methods and uses thereof” (MERIAL INC., priority 2012, dated 2018):

Columns and labels:
[1] = test system: Toxocara canis (roundworm); test: Efficacy against Toxocara canis (roundworm) in dogs (Example 13); assay type: in vivo; conditions: after 8 days; treated on Day 0; 0.5 mg/kg milbemycin oxime (Table 11) or 0.5 mg/kg milbemycin oxime and 2.5 mg/kg Compound A (Table 12); nine infected Beagle dogs per group
[2] = test system: Dirofilaria immitis (heartworm); test: Efficacy against Dirofilaria immitis (heartworm) in dogs (Example 16); conditions: after 119 days; treated on Day 0; 0.5 mg/kg milbemycin oxime (Table 33) or 0.5 mg/kg milbemycin oxime and 2.5 mg/kg Compound A (Table 34); infected dogs

## milbemycin oxime
[1]
  Adult T. canis worms found: No worms were found in any dog
[2]
  Adult D. immitis worms recovered: No worms were recovered
